Measurements published in article PMC7265302 (Nature Communications, 2020).

Target: MavC, wild type (Legionella pneumophila, UniProt Q5ZTL4 1-482)
Assay: SEC
Details: both partners purified

B1: UBE2N, free form (enzyme)
chain: MAGLPRRIIKETQRLLAEPVPGIKAEPDESNARYFHVVIAGPQDSPFEGGTFKLELFLPEEYPMAAPKVRFMTKIYHPNVDKLGRICLDILKDKWSPALQIRTVLLSIQALLSAPNPDDPLANDVAEQWKTNEAQAIETARAWTRLYAMNNI
notes: also called free UBE2N; free-form UBE2N; not shown: His-sumo, N-terminal, cleaved
binding result: binds
